Test results as given in patent US20230128969A1, “POLYURETHANE FOAM COMPOSITIONS WITH ANTIMICROBIAL PROPERTIES” (SANITIZED AG, priority 2020, published 2023).

Assay: Evaluation of foam or coating quality (quality marks)
Design: key: 0: no foam or coating formed; +: very bad or collapsed foam; very defective coating; ++: bad foam quality; defective coating; +++: mediocre foam or coating quality; ++++: good foam or coating quality; +++++: comparable quality with reference foam or coating
Details: for Quality at given amount of (C) in pbw: pbw of commercial product (active content in label)
[1] = memory foam A1, 0.2 pbw (B) with 0.5 pbw (C) dimethyltetradecyl(3-(trimethoxysilyl)propyl)ammonium chloride, (E) Diglyme 0.8 pbw

O.O.O=C([O-])CN(CCN(CC(=O)O)CC(=O)O)CC(=O)[O-].[Na+].[Na+] [disodium EDTA dihydrate, Disodium EDTA dihydrate]
Q (foam quality) [1]: ++++

CCCCCCCCCCCCCC[N+](C)(C)C.[Cl-] [myristyltrimethylammonium chloride]
Quality at given amount of (C) in pbw (memory foam A1, 0.25 pbw (C)): +++++ | Quality at given amount of (C) in pbw (memory foam A1, 0.5 pbw (C)): +++++ | Quality at given amount of (C) in pbw (memory foam A1, 1 pbw (C)): ++++ | Quality at given amount of (C) in pbw (memory foam A1, 2 pbw (C)): ++++ | Quality at given amount of (C) in pbw (memory foam A1, 4 pbw (C)): ++ | Q (foam quality) (memory foam A2, 0.25 pbw (C)): +++++ | Q (foam quality) (memory foam A2, 0.5 pbw (C)): +++++ | Q (foam quality) (memory foam A2, 1 pbw (C)): ++++ | Q (foam quality) (memory foam A2, 2 pbw (C)): ++++ | Q (foam quality) (memory foam A2, 4 pbw (C)): ++

CCCCCCCCCCCCN(CCCN)CCCN [laurylamine dipropylenediamine]
Quality at given amount of (C) in pbw (memory foam A1, 0.25 pbw (C)): +++++ | Quality at given amount of (C) in pbw (memory foam A1, 0.5 pbw (C)): ++++ | Quality at given amount of (C) in pbw (memory foam A1, 1 pbw (C)): ++++ | Quality at given amount of (C) in pbw (memory foam A1, 2 pbw (C)): +++ | Quality at given amount of (C) in pbw (memory foam A1, 4 pbw (C)): + | Q (foam quality) (memory foam A2, 0.25 pbw (C)): ++++ | Q (foam quality) (memory foam A2, 0.5 pbw (C)): ++++ | Q (foam quality) (memory foam A2, 1 pbw (C)): ++++ | Q (foam quality) (memory foam A2, 2 pbw (C)): +++ | Q (foam quality) (memory foam A2, 4 pbw (C)): +

O=C(O)CN(CC(=O)O)CC(=O)O [Nitrilotriacetic acid]
Q (foam quality) [1]: +

C8-C18-alkyldimethylbenzyl ammonium chloride
Quality at given amount of (C) in pbw (memory foam A1, 0.25 pbw (C)): +++++ | Quality at given amount of (C) in pbw (memory foam A1, 0.5 pbw (C)): +++++ | Quality at given amount of (C) in pbw (memory foam A1, 1 pbw (C)): +++++ | Quality at given amount of (C) in pbw (memory foam A1, 2 pbw (C)): ++++ | Quality at given amount of (C) in pbw (memory foam A1, 4 pbw (C)): ++++ | Quality at given amount of (C) in pbw (memory foam A1, 8 pbw (C)): + | Q (foam quality) (memory foam A2, 0.25 pbw (C)): +++++ | Q (foam quality) (memory foam A2, 0.5 pbw (C)): +++++ | Q (foam quality) (memory foam A2, 1 pbw (C)): ++++ | Q (foam quality) (memory foam A2, 2 pbw (C)): ++++ | Q (foam quality) (memory foam A2, 4 pbw (C)): ++++ | Q (foam quality) (memory foam A2, 8 pbw (C)): +

O=C(O)CC(O)(CC(=O)O)C(=O)O [Citric acid]
Q (foam quality) [1]: +

CCCCCCCCCCC(=O)O [Undecanoic acid]
Q (foam quality) (memory foam A1, 0.5 pbw (B) with 0.5 pbw (C) dimethyltetradecyl(3-(trimethoxysilyl)propyl)ammonium chloride, (E) Arcol Polyol 1108 0.5 pbw): ++++
